The record followed here is PMC6504579 (Journal of immunology (Baltimore, Md. : 1950), 2019).

The format of this data set is in vitro ADME, human. The conditions noted are these: HLA-B57+ CD4 T cell extracts, one representative experiment.

For `CC[C@H](C)[C@H](NC(=O)[C@@H](NC(=O)[C@H](CCC(=O)O)NC(=O)[C@@H]1CCCN1C(=O)[C@H](CO)NC(=O)[C@H](Cc1ccccc1)NC(=O)[C@H](C)NC(=O)[C@H](CCCCN)NC(=O)[C@H](CCC(=O)O)NC(=O)[C@H](CCC(=O)O)NC(=O)[C@@H](NC(=O)[C@@H](NC(=O)[C@@H](N)CCCCN)C(C)C)C(C)C)C(C)C)C(=O)N1CCC[C@H]1C(=O)N[C@@H](CCSC)C(=O)N[C@@H](Cc1ccccc1)C(=O)N[C@@H](CO)C(=O)N[C@@H](C)C(=O)N[C@@H](CC(C)C)C(=O)O` [5-KF11–3], the “KF11 peptides yielded, activated over resting extracts” value was 2.8 fold.
